Results of unrelated studies side by side (data: NIAID ChemDB).

Shared fields: tests on isolated targets

An empty or dashed field is not shown. Conditions beyond the fields shown may differ between rows. Two numbers with a dash give a range or band. ICn is the concentration giving n% inhibition. Inhibition is in % at the dose shown (toxicity tests: loss of growth or viability).

| SMILES | method | target | endpoint | agent | strain | tested at | value |
|---|---|---|---|---|---|---|---|
| O=C(O)c1cc2nc(-c3ccc(F)cc3)cc(-c3ccc(Cl)c(Cl)c3)n2n1 |  | RNA-dependent RNA polymerase | IC50 | Hepatitis C virus |  |  | 1–10 µM |
| O=C(NCc1ccccc1Cl)c1nc2ccccc2c(=O)n1O | fluorescence | NS5B | IC50 | Hepatitis C virus | 1b |  | 32.8 µM |
| Cn1c(Cc2nc3ccc(C(N)=O)cc3[nH]2)nc2ccc(C(=O)Nc3ccc(C(=O)NC(CCC(=O)O)C(=O)O)cc3)cc21 |  | NS3 serine protease | IC50 | Hepatitis C virus |  |  | 13 µM |
| CCCC(=O)N(Cc1cccc(OC)c1)c1cc(-c2ccccc2)sc1C(=O)O |  | NS3 ATPase | IC50 | Hepatitis C virus |  |  | 5–20 µM |
| FC(F)(F)c1cccc(Oc2ccc(-c3cnc4c(-c5nn[nH]n5)cnn4c3C3CCCCC3)cc2)c1 |  | RNA-dependent RNA polymerase | IC50 | Hepatitis C virus |  |  | 1–10 µM |
| COc1nc(NCCO)nc(Nc2ccc3[nH]ncc3c2)n1 |  | DNA polymerase | IC50 | Hepatitis B virus |  |  | 0.1–1 µg/mL |
| CC(C)N(C(=O)c1ccc(C#N)cc1)c1cc(-c2ccccc2)sc1C(=O)O |  | NS3 ATPase | IC50 | Hepatitis C virus |  |  | 5–20 µM |
| COc1nc(Nc2ccc3cn[nH]c3c2)nc(N2CCN(CCO)CC2)n1 |  | DNA polymerase | inhibition | Hepatitis B virus |  | 0.01 µg/mL | 3% |
| COc1ccc(-c2cc(-c3ccc(F)cc3)nc3cc(C(=O)O)nn23)cc1 |  | RNA-dependent RNA polymerase | IC50 | Hepatitis C virus |  |  | >10 µM |
| CC(NC(=O)c1ccc2c(c1)nc(-c1ccoc1)n2C1CCCCC1)C(=O)Nc1cccc(-c2ccc(O)cc2)c1 |  | NS5B polymerase | IC50 | Hepatitis C virus |  |  | 5–25 µM |
| O=C(NCc1ccccc1)c1nc2ccccc2c(=O)n1O | fluorescence | NS5B | IC50 | Hepatitis C virus | 1b |  | 28.2 µM |
| Clc1ccc(COc2ccccc2-c2nc3ccccc3[nH]2)cc1 |  | NS5B RdRp activity | inhibition | Hepatitis C virus | 1b | 100 µM | 0% |
| COc1ccc(-c2cnc3cc(C(=O)O)nn3c2-c2ccc(OC)cc2)cc1 |  | RNA-dependent RNA polymerase | IC50 | Hepatitis C virus |  |  | >10 µM |
| CN1CCC(NC(=O)c2ccc3c(c2)nc(-c2ccoc2)n3C2CCCCC2)(C(=O)Nc2ccc3c(c2)cc(C(=O)O)n3C)CC1 |  | NS5B polymerase | IC50 | Hepatitis C virus |  |  | <0.5 µM |
| CC[C@@H](C)[C@H](NC(=O)[C@H](CC(C)C)NC(=O)[C@@H](CCC(=O)O)NC(=O)[C@H](CC(=O)O)NOC(=O)CCC(=O)O)C(=O)N[C@@H](CC1CCCCC1)C(=O)NC1(C(=O)C(F)(F)C(F)(F)F)CC1 |  | NS3 protease | Ki | Hepatitis C virus |  |  | 1.8 µM |
| CC(C)CC(=O)N(Cc1cccc(Cl)c1)c1cc(-c2ccccc2)sc1C(=O)O |  | NS3 ATPase | IC50 | Hepatitis C virus |  |  | <5 µM |
| CCn1c(-c2ccccc2OCc2ccccc2)nc2ccccc21 |  | NS5B RdRp activity | inhibition | Hepatitis C virus | 1b | 100 µM | 22.4% |
| CCC[C@H](NC(=O)[C@H](CC1CCCCC1)NC(=O)[C@@H](NC(=O)[C@H](CC(C)C)NC(=O)[C@@H](CCC(=O)O)NC(=O)[C@H](CC(=O)O)NOC(=O)CCC(=O)O)[C@H](C)CC)C(=O)NS(=O)(=O)c1ccccc1 |  | NS3 protease | Ki | Hepatitis C virus |  |  | 0.014 µM |
| CC(C)N(C(=O)c1ccc(Cl)cc1N)c1cc(-c2ccccc2)sc1C(=O)O |  | NS3 ATPase | IC50 | Hepatitis C virus |  |  | <5 µM |
| O=C(O)c1cc2nc(-c3ccccc3)cc(-c3ccc(Cl)cc3Cl)n2n1 |  | RNA-dependent RNA polymerase | IC50 | Hepatitis C virus |  |  | >10 µM |
| O=C(O)/C=C/c1ccc(NC(=O)[C@H](Cc2ccc(-c3ccccc3)cc2)NC(=O)c2ccc3c(c2)nc(-c2ccoc2)n3C2CCCCC2)cc1 |  | NS5B polymerase | IC50 | Hepatitis C virus |  |  | 5–25 µM |
| COc1nc(Nc2ccc3[nH]ncc3c2)nc(N2CCN(CCO)CC2)n1 |  | DNA polymerase | inhibition | Hepatitis B virus |  | 0.01 µg/mL | 12% |
| O=C(NCc1ccc(Cl)cc1)c1nc2ccccc2c(=O)n1O | fluorescence | NS5B | IC50 | Hepatitis C virus | 1b |  | 44.5 µM |
| CCOC(=O)N1CCN(c2nc(Nc3ccc4[nH]ncc4c3)nc(OC)n2)CC1 |  | DNA polymerase | inhibition | Hepatitis B virus |  | 0.1 µg/mL | 23% |
| O=C(O)/C=C/c1ccc(NC(=O)[C@H](CCO)NC(=O)c2ccc3c(c2)nc(-c2ccoc2)n3C2CCCCC2)cc1 |  | NS5B polymerase | IC50 | Hepatitis C virus |  |  | 0.5–5 µM |
| Cc1ccccc1C(=O)Nc1cc(-c2ccc(NS(C)(=O)=O)cc2)sc1C(=O)O |  | NS3 ATPase | IC50 | Hepatitis C virus |  |  | 5–20 µM |
| CC[C@H](NC(=O)[C@H](CC1CCCCC1)NC(=O)[C@@H](NC(=O)[C@H](CC(C)C)NC(=O)[C@@H](CCC(=O)O)NC(=O)[C@H](CC(=O)O)NC(C)=O)[C@H](C)CC)C(=O)/C=C/CCCC(C)C |  | NS3 protease | Ki | Hepatitis C virus |  |  | 0.39 µM |
| c1ccc(-c2ccc(-c3nc4ccccc4[nH]3)cc2)nc1 |  | NS5B RdRp activity | inhibition | Hepatitis C virus | 1b | 100 µM | 6.2% |
| O=C(NC1(C(=O)Nc2ccc(C(=O)O)c(Cl)c2)CCCC1)c1ccc2c(c1)nc(-c1ccoc1)n2C1CCCCC1 |  | NS5B polymerase | IC50 | Hepatitis C virus |  |  | 0.5–5 µM |
| CC(C)CCC(=O)N(C)c1cc(-c2ccccc2)sc1C(=O)O |  | NS3 ATPase | IC50 | Hepatitis C virus |  |  | 5–20 µM |
| O=C(O)c1cnn2c(C3CCCCC3)c(-c3cc(C(F)(F)F)cc(C(F)(F)F)c3)cnc12 |  | RNA-dependent RNA polymerase | IC50 | Hepatitis C virus |  |  | >10 µM |
| C[C@@H]1CCCC[C@H]1n1c(-c2ccoc2)nc2cc(C(=O)NC3(C(=O)Nc4ccc(/C=C/C(=O)O)cc4)CCCC3)ccc21 |  | NS5B polymerase | IC50 | Hepatitis C virus |  |  | 0.5–5 µM |
| CC[C@H](NC(=O)[C@H](CC1CCCCC1)NC(=O)[C@@H](NC(=O)[C@H](CC(C)C)NC(=O)[C@@H](CCC(=O)O)NC(=O)[C@H](CC(=O)O)NC(C)=O)[C@H](C)CC)C(=O)CCc1nccs1 |  | NS3 protease | Ki | Hepatitis C virus |  |  | 1 µM |
| COc1nc(Nc2ccc3cn[nH]c3c2)nc(-n2ccnc2)n1 |  | Nonstructural protein 5B | inhibition | Hepatitis C virus |  | 1 µg/mL | 20% |
| O=C(O)c1cnn2c(C3CCCCC3)c(-c3cncnc3)cnc12 |  | RNA-dependent RNA polymerase | IC50 | Hepatitis C virus |  |  | >10 µM |
| O=C(NCCCc1ccccc1)Nc1cc(-c2ccccc2)sc1C(=O)O |  | NS3 ATPase | IC50 | Hepatitis C virus |  |  | 5–20 µM |
| CCn1c(-c2ccc(C(C)C)cc2)nc2ccccc21 |  | NS5B RdRp activity | inhibition | Hepatitis C virus | 1b | 100 µM | 14.6% |
| C/C(=C\CCC1=CC[C@H](C2=CC(=O)O[C@@H]2O)O[C@H]1O)CCC1C(C)CCCC1(C)C |  | NS3 ATPase activity | IC50 | Hepatitis C virus |  |  | 70 µM |
| O=C(O)c1cc(NC(=O)C2(NC(=O)c3ccc4c(c3)nc(-c3ccoc3)n4C3CCCCC3)CCCC2)cc(C(=O)O)c1 |  | NS5B polymerase | IC50 | Hepatitis C virus |  |  | 0.5–5 µM |
| CS(=O)(=O)c1cccc(-c2ccc(-c3cnc4c(-c5nn[nH]n5)cnn4c3C3CCCCC3)cc2)c1 |  | RNA-dependent RNA polymerase | IC50 | Hepatitis C virus |  |  | <1 µM |
| O=C(NCc1cccc(Cl)c1)c1nc2ccccc2c(=O)n1O | fluorescence | NS5B | IC50 | Hepatitis C virus | 1b |  | 25.6 µM |

The last 3 rows once more:

| SMILES | method | target | endpoint | agent | strain | tested at | value |
|---|---|---|---|---|---|---|---|
| O=C(O)c1cc(NC(=O)C2(NC(=O)c3ccc4c(c3)nc(-c3ccoc3)n4C3CCCCC3)CCCC2)cc(C(=O)O)c1 |  | NS5B polymerase | IC50 | Hepatitis C virus |  |  | 0.5–5 µM |
| CS(=O)(=O)c1cccc(-c2ccc(-c3cnc4c(-c5nn[nH]n5)cnn4c3C3CCCCC3)cc2)c1 |  | RNA-dependent RNA polymerase | IC50 | Hepatitis C virus |  |  | <1 µM |
| O=C(NCc1cccc(Cl)c1)c1nc2ccccc2c(=O)n1O | fluorescence | NS5B | IC50 | Hepatitis C virus | 1b |  | 25.6 µM |